Measured values taken from PMC4450067 (PLoS Pathogens, 2015).

System: G3BP-NTF2
Assay: Analytical size exclusion chromatography (SEC) of G3BP-NTF2 with or without nsP3-25
Format: binding, human
Settings: G3BP-NTF2 alone, pH 7
Description: Engagement of two G3BP molecules with each nsP3-25 peptide was further supported by analytical size exclusion chromatography (SEC) analysis. It is known from crystal structures and SEC analysis that the NTF2-like domains of rat and human G3BP form homo-dimers. G3BP-NTF2 alone was eluted with an apparent molecular weight of 30 kDa, slightly lower than the calculated molecular weight of the dimer (36 kDa), while pre-incubation of G3BP with a ten-fold molar excess of nsP3-25 peptide shifted the elution peak, corresponding to the formation of a 60 kDa complex (Fig. 4E). […] There was no evidence for higher-order oligomers.
Before analysis, 40 μM G3BP-NTF2 and 400 μM nsP3-25 were mixed and incubated for 1h in SEC-buffer (25 mM HEPES, 300 mM NaCl, 5 mM MgCl2, 10% glycerol, pH 7). A sample volume of 100 μL was injected onto the Superdex 75 10/300 GL column equilibrated in SEC-buffer. G3BP-NTF2 alone was used a control. The apparent molecular weights of the eluted proteins were calculated from their retention volumes as described in the gel filtration LMW/HMW calibration kits assuming similar globular shapes for the analyzed proteins and calibration standards (GE Healthcare).

In the case of “G3BP-NTF2: purified NTF2-like domain of human G3BP-1, expressed in E. coli”, the retention volume (SEC) is reported as 11.3 mL and the “apparent molecular weight of eluted G3BP-NTF2” value (Superdex 75 10/300 GL, 25 mM HEPES, 300 mM NaCl, 5 mM MgCl2, 10% glycerol) is reported as 30 kDa.
